Pooled drug test results. Numbers come from NIAID ChemDB, via PubChem.

Common to all: enzyme or target tests

a–b is a range or a potency band. Inhibition is in % at the dose shown (toxicity tests: loss of growth or viability). Lines come from different laboratories, so protocols vary. ICn is the concentration giving n% inhibition. Blank or dashed fields: not listed here.

SMILES	target	tested at	organism	endpoint	value
COc1ccc(-c2cnc3c(C#N)cnn3c2C2CCCCC2)cc1	RNA-dependent RNA polymerase	-	Hepatitis C virus	IC50	>10 µM
Cc1ccc(CN(C(=O)C(C)C)c2cc(-c3ccccc3)sc2C(=O)O)cc1	NS3 ATPase	-	Hepatitis C virus	IC50	5–20 µM
O=C(O)c1cnn2c(C3CCCCC3)c(-c3ccc(-c4ccccc4)cc3)cnc12	RNA-dependent RNA polymerase	-	Hepatitis C virus	IC50	1–10 µM
Cc1ccc(C(=O)Nc2cscc2-c2nc(C(=O)O)c(O)c(=O)[nH]2)s1	HCV polymerase	-	Hepatitis C virus	IC50	<25 µM
CNC(=O)CN1CCN(c2nc(Nc3ccc4[nH]ncc4c3)nc(OC)n2)CC1	Nonstructural protein 5B	10 µg/mL	Hepatitis C virus	inhibition	47%
Cc1ccccc1CC(=O)Nc1cccc(S(=O)(=O)NC(=O)Nc2cscc2-c2nc(C(=O)O)c(O)c(=O)[nH]2)c1	HCV polymerase	-	Hepatitis C virus	IC50	<25 µM
CC[C@@H](C=O)NC(=O)[C@@H]1C[C@@H](OCc2ccccc2)CN1C(=O)[C@@H](NC(=O)C(OC)c1ccccc1)C(C)C	NS3 protease	-	Hepatitis C virus	Ki	>100 µM
CNC(=O)c1c(-c2ccc(F)cc2)oc2cc(-c3nccs3)c(OC(C)C)cc12	Nonstructural protein 5B	-	Hepatitis C virus	IC50	≤0.5 µM
CC[C@@H](C=O)NC(=O)[C@@H]1C[C@@H](OCc2ccccc2)CN1C(=O)[C@@H](NC(=O)[C@@H](NC(=O)Nc1ccccc1C(=O)O)C(C)C)C(C)C	NS3 protease	-	Hepatitis C virus	Ki	1–100 µM
O=C(O)c1cnn2c(-c3ccccc3)c(-c3ccc(OCc4ccccc4)cc3)cnc12	RNA-dependent RNA polymerase	-	Hepatitis C virus	IC50	>10 µM
COc1nc(Nc2ccc3[nH]ncc3c2)nc(NC2CC2)n1	Nonstructural protein 5B	1 µg/mL	Hepatitis C virus	inhibition	38%
O=C(O)c1cc2nccc(-c3cccc(-c4ccc(Cl)cc4)c3)n2n1	RNA-dependent RNA polymerase	-	Hepatitis C virus	IC50	1–10 µM
CC[C@@H](C=O)NC(=O)[C@@H]1C[C@@H](OC(=O)Nc2ccc3c(c2)OCO3)CN1C(=O)[C@@H](NC(=O)[C@@H](NC(=O)c1cnccn1)C(C)C)C(C)C	NS3 protease	-	Hepatitis C virus	Ki	1–100 µM
Cc1c(Cl)cccc1S(=O)(=O)NC(=O)Nc1cscc1-c1nc(C(=O)O)c(O)c(=O)[nH]1	HCV polymerase	-	Hepatitis C virus	IC50	<25 µM
CNC(=O)c1c(-c2ccc(F)cc2)oc2cc(N3CCC(S(C)(=O)=O)C3)c(OC(C)C)cc12	Nonstructural protein 5B	-	Hepatitis C virus	IC50	≤0.5 µM
O=C(O)c1nc(-c2sccc2CCO)[nH]c(=O)c1O	HCV polymerase	-	Hepatitis C virus	IC50	<25 µM
CCOC(=O)c1c(S(=O)(=O)Nc2cc(-c3ccccc3)sc2C(=O)O)c(-c2ccccc2)n(-c2ccccc2)c1C	NS3 ATPase	-	Hepatitis C virus	IC50	<5 µM
CNC(=O)c1c(-c2ccc(F)cc2)oc2cc(N3CCOCC3)c(OCc3ccc(C(=O)OC)cc3)cc12	Nonstructural protein 5B	-	Hepatitis C virus	IC50	≤0.5 µM
CC(C)C[C@H](NC(=O)c1cnn2c(C3CCCCC3)c(-c3ccc(F)cc3)cnc12)C(=O)O	RNA-dependent RNA polymerase	-	Hepatitis C virus	IC50	<1 µM
CN(C(=O)c1ccc(C(F)(F)F)cc1F)c1cc(-c2ccccc2)sc1C(=O)O	NS3 ATPase	-	Hepatitis C virus	IC50	5–20 µM
COc1nc(Nc2ccc3cn[nH]c3c2)nc(N2CCCC2)n1	Nonstructural protein 5B	0.1 µg/mL	Hepatitis C virus	inhibition	7%
O=C(Nc1cc(-c2ccccc2)sc1C(=O)O)c1ccc(Cl)cc1Cl	NS3 ATPase	-	Hepatitis C virus	IC50	<5 µM
COc1ccc(S(=O)(=O)NC(=O)Nc2cscc2-c2nc(C(=O)O)c(O)c(=O)[nH]2)cc1	HCV polymerase	-	Hepatitis C virus	IC50	<25 µM
CC[C@H](NC(=O)[C@H](CC(C)C)NC(=O)[C@@H](NC(=O)[C@@H](NC(=O)c1cnccn1)C(C)C)C(C)C)C(=O)C(=O)NCCc1ccccc1	NS3 protease	-	Hepatitis C virus	Ki	1–100 µM
CCOC(=O)C1CCN(c2nc(Nc3ccc4[nH]ncc4c3)nc(OC)n2)CC1	DNA polymerase	1 µg/mL	Hepatitis B virus	inhibition	56%
O=C(N[C@@H](Cc1cc2ccccc2[nH]1)C(=O)O)c1cnn2c(C3CCCCC3)c(-c3ccc(OCc4ccccc4)cc3)cnc12	RNA-dependent RNA polymerase	-	Hepatitis C virus	IC50	<1 µM
CNC(=O)c1c(-c2ccc(F)cc2)oc2cc(Cl)c(OC)cc12	Nonstructural protein 5B	-	Hepatitis C virus	IC50	≤0.5 µM
O=C(O)c1nc(-c2ccccc2NS(=O)(=O)c2cc(Cl)c(Oc3ccc([N+](=O)[O-])cc3Cl)c(Cl)c2)[nH]c(=O)c1O	HCV polymerase	-	Hepatitis C virus	IC50	<100 µM
CC1CCCCC1C(=O)N(c1cc(-c2ccccc2)sc1C(=O)O)C(C)C	NS3 ATPase	-	Hepatitis C virus	IC50	5–20 µM
COc1nc(Nc2ccc3[nH]ncc3c2)nc(NN2CCOCC2)n1	DNA polymerase	1 µg/mL	Hepatitis B virus	inhibition	67%
COc1ccccc1-c1ccc(-c2nc3cc(C(=O)O)[nH]n3c(=O)c2C2CCCCC2)cc1	RNA-dependent RNA polymerase	-	Hepatitis C virus	IC50	1–10 µM
Cc1cccc(CN(C(=O)C2CC2)c2cc(-c3ccccc3)sc2C(=O)O)c1	NS3 ATPase	-	Hepatitis C virus	IC50	5–20 µM
CC(=O)Nc1ccc(COC(=O)Nc2ccsc2-c2nc(C(=O)O)c(O)c(=O)[nH]2)cc1	HCV polymerase	-	Hepatitis C virus	IC50	<25 µM
CC[C@@H](C=O)NC(=O)[C@@H]1C[C@@H](OCc2ccccc2)CN1C(=O)[C@@H](NC(=O)/C(=N\OC)c1csc(N)n1)C(C)C	NS3 protease	-	Hepatitis C virus	Ki	1–100 µM
O=C(O)c1cnn2c(C3CCCCC3)c(-c3ccoc3)cnc12	RNA-dependent RNA polymerase	-	Hepatitis C virus	IC50	1–10 µM
Cc1ccc(S(=O)(=O)Nc2c(C(=O)O)sc(-c3ccccc3)c2C)c(C)c1	NS3 ATPase	-	Hepatitis C virus	IC50	5–20 µM

For reference, 5 entries again:

SMILES	target	tested at	organism	endpoint	value
O=C(O)c1nc(-c2sccc2CCO)[nH]c(=O)c1O	HCV polymerase	-	Hepatitis C virus	IC50	<25 µM
CCOC(=O)C1CCN(c2nc(Nc3ccc4[nH]ncc4c3)nc(OC)n2)CC1	DNA polymerase	1 µg/mL	Hepatitis B virus	inhibition	56%
CNC(=O)c1c(-c2ccc(F)cc2)oc2cc(-c3nccs3)c(OC(C)C)cc12	Nonstructural protein 5B	-	Hepatitis C virus	IC50	≤0.5 µM
CNC(=O)CN1CCN(c2nc(Nc3ccc4[nH]ncc4c3)nc(OC)n2)CC1	Nonstructural protein 5B	10 µg/mL	Hepatitis C virus	inhibition	47%
COc1nc(Nc2ccc3[nH]ncc3c2)nc(NC2CC2)n1	Nonstructural protein 5B	1 µg/mL	Hepatitis C virus	inhibition	38%